Measured values from several laboratories, pooled; numbers as filed in NIAID ChemDB.

Common to all: growth or infection tests; organism: Candida albicans

MIC50, MIC90 and the like: level of inhibition, or share of isolates inhibited. a–b is a range or a potency band. ECn is the concentration giving n% inhibition of infection, replication or growth. Neighbouring rows are from separate reports. An empty or dashed field is not shown.

| smiles | strain | read-out | read by | value |
|---|---|---|---|---|
| Clc1ccc(C(Cn2ccnc2)OCc2c(Cl)cccc2Cl)c(Cl)c1 | 106 isolates | MIC50 | - | 1 µg/mL |
| Clc1ccc(C(c2ccccc2)N2CCN(c3nc(Cl)nc(NC4CC4)n3)CC2)cc1 | MTCC 183 | MIC | agar | 50 µg/mL |
| C[C@@H]1OC(OC[C@H]2OC(Oc3c(-c4ccc(O)c(O)c4)oc4cc(O)cc(O)c4c3=O)[C@H](O)[C@@H](O)[C@@H]2O)[C@H](O)[C@H](O)[C@H]1O | ATCC 10231 | MIC | - | 80 µg/mL |
| CCC(C)CC(C)CCCCCCCCC(=O)NC1C[C@@H](O)[C@@H](O)NC(=O)[C@@H]2[C@@H](O)CCN2C(=O)[C@H]([C@@H](O)CC(N)=O)NC(=O)[C@H]([C@H](O)[C@@H](O)c2ccc(OP(=O)([O-])O)cc2)NC(=O)[C@@H]2C[C@@H](O)CN2C(=O)[C@H]([C@H](C)O)NC1=O.[Na+] | MY1208 | MFC | - | 4 µg/mL |
| FC(F)(F)c1cccc([Se][Se]c2cccc(C(F)(F)F)c2)c1 | - | MFC | broth dilution | >64 µg/mL |
| FC(F)(F)c1cccc([Se][Se]c2cccc(C(F)(F)F)c2)c1 | - | EC50 | - | 2–10 µM |
| Clc1ccc(COC(Cn2ccnc2)c2ccc(Cl)cc2Cl)c(Cl)c1 | ATCC 90028 | MIC | - | 0.06 µg/mL |
| CCCCCOc1ccc(-c2ccc(-c3ccc(C(=O)N[C@H]4C[C@@H](O)[C@@H](O)NC(=O)[C@@H]5[C@@H](O)[C@@H](C)CN5C(=O)[C@H]([C@H](C)O)NC(=O)[C@H]([C@H](O)[C@@H](O)c5ccc(O)cc5)NC(=O)[C@@H]5C[C@@H](O)CN5C(=O)[C@H]([C@H](C)O)NC4=O)cc3)cc2)cc1 | - | MIC90 | - | 0.015 µg/mL |
| CCCCC(=O)Oc1c(OC)ccc2cc3[n+](cc12)CCc1cc2c(cc1-3)OCO2 | ATCC 10231 | MIC | - | >500 µg/mL |
| Clc1cccc(N2CCN(c3nc(NCCNc4ncnc5c(Br)cc(Br)cc45)nc(NC4CC4)n3)CC2)c1 | MTCC 183 | MIC | agar | 100 µg/mL |
| Clc1ccc(CSC(Cn2ccnc2)c2ccc(Cl)cc2Cl)cc1 | 106 isolates | MIC50 | - | 0.5 µg/mL |
| O=c1c(O)c(-c2ccccc2)oc2cc(O)cc(O)c12 | - | MIC | broth dilution | <80 µg/mL |
| O=c1[nH]sc2cccc(C(F)(F)F)c12 | ATCC 2091 | MIC | - | 30 µg/mL |
| COC(=O)[C@]1(C)CCC[C@]2(C)c3ccc(C(C)C)cc3-c3[nH]c4ccc(Br)cc4c3C12 | CGMCC 2.2086 | MIC | - | >100 µg/mL |
| C[C@H]1[C@H](O)[C@@H](C)/C=C/C=C/C=C/C=C/C=C/C=C/C=C/[C@H](O[C@@H]2O[C@H](C)[C@@H](O)[C@H](N)[C@@H]2O)C[C@@H]2O[C@](O)(C[C@@H](O)C[C@@H](O)CC[C@H](O)[C@@H](O)C[C@@H](O)CC(=O)O[C@H]1C)C[C@H](O)[C@H]2C(=O)O | ATCC 90028 | MIC | - | 0.12 µg/mL |
| Clc1ccccc1C(c1ccccc1)(c1ccccc1)n1ccnc1 | - | MIC95 | - | 6.25 µg/mL |
| COC(=O)[C@]1(C)CCC[C@]2(C)c3ccc(C(C)C)cc3-c3[nH]c4ccccc4c3C12 | CGMCC 2.2086 | MIC | - | >100 µg/mL |
| CN(C)C1=NC(=O)/C(=C/c2ccc([N+](=O)[O-])cc2)S1 | ATCC 10231 | MIC100 | broth dilution | >250 µg/mL |
| CC(C)C(=O)CCCNC(=S)Nc1ccc([N+](=O)[O-])cc1 | ATCC2094 | MIC | - | 10 µg/mL |
| c1ccc([Se][Se]c2ccccc2)cc1 | - | EC50 | - | 2–10 µM |
| C=CCc1ccc(O)c(-c2ccc(O)c(CC=C)c2)c1 | YL 338 | MIC | broth dilution | 64 µg/mL |
| C[C@@H]1C[C@@H]([C@H](O)CC2CC(=O)NC(=O)C2)C(=O)[C@@H](C)C1 | Isolate 1 | MIC | - | 0.36 µM |
| COc1ccc2cc3[n+](cc2c1O)CCc1cc2c(cc1-3)OCO2 | ATCC 10231 | MIC | - | >500 µg/mL |
| Cc1c(N)nc([C@H](CC(N)=O)NC[C@H](N)C(N)=O)nc1C(=O)N[C@H](C(=O)N[C@H](C)[C@@H](O)[C@H](C)C(=O)N[C@H](C(=O)NCCc1nc(-c2nc(C(=O)NCCC[S+](C)C)cs2)cs1)[C@@H](C)O)C(O[C@@H]1O[C@@H](CO)[C@@H](O)[C@H](O)[C@@H]1O[C@H]1O[C@H](CO)[C@@H](O)[C@H](OC(N)=O)[C@@H]1O)c1cnc[nH]1 | Isolate 94-77 | MIC | - | <0.19 µg/mL |
| CCCCNC(=O)c1c(SSc2cccc(C(F)(F)F)c2C(=O)NCCCC)cccc1C(F)(F)F | ATCC 2091 | MIC | - | 30 µg/mL |
| CC(C)C(=O)CCCNC(=S)NC1COOc2ccccc21 | ATCC2094 | MIC | - | 36 µg/mL |
| Cc1nn(-c2ccccc2)c(Oc2ccc(Cl)cc2)c1C1C(C#N)=C(N)OC2=C1C(=O)CCC2 | MTCC 227 | MIC | - | 100 µg/mL |
| CCCCNC(=O)c1cccc(F)c1SSc1c(F)cccc1C(=O)NCCCC | ATCC 2091 | MIC | - | 20 µg/mL |
| COC(=O)[C@]1(C)CCC[C@]2(C)c3ccc(C(C)C)cc3-c3[nH]c4c(C)cccc4c3C12 | CGMCC 2.2086 | MIC | - | >100 µg/mL |
| CCC(C)n1ncn(-c2ccc(N3CCN(c4ccc(OC[C@H]5CO[C@](Cn6cncn6)(c6ccc(Cl)cc6Cl)O5)cc4)CC3)cc2)c1=O | - | MIC | - | 0.002–0.016 µg/mL |
| CCN1CCN(c2nc(Cl)nc(NC3CC3)n2)CC1 | MTCC 183 | MIC | agar | 100 µg/mL |
| CCCCCOc1ccc(-c2cc(-c3ccc(C(=O)N[C@H]4C[C@@H](O)[C@@H](O)NC(=O)[C@@H]5[C@@H](O)[C@@H](C)CN5C(=O)[C@H]([C@H](O)CC(N)=O)NC(=O)[C@H]([C@H](O)[C@@H](O)c5ccc(O)c(OS(=O)(=O)O)c5)NC(=O)[C@@H]5C[C@@H](O)CN5C(=O)[C@H]([C@@H](C)O)NC4=O)cc3)no2)cc1 | - | MIC50 | - | 0.015 µg/mL |
| COc1ccc(NC(=S)NCCC(=O)OC(C)C)cc1OC | ATCC2094 | MIC | - | 112 µg/mL |
| CC(C)=CCC/C(C)=C/CC/C(C)=C/CC[C@@]1(C)[C@H](CCCO)/C(=C(/C)C=O)CC[C@]1(C)O | SR75 | MIC | - | >50 µg/mL |
| CN1CCN(c2nc(Cl)nc(NC3CC3)n2)CC1 | MTCC 183 | MIC | agar | 200 µg/mL |
| C[C@@H]1[C@H](O)[C@@H](C)/C=C/C=C/CC/C=C/C=C/C=C/C=C/C(O[C@H]2O[C@H](C)[C@@H](O)[C@H](N)[C@@H]2O)CC2O[C@](O)(CC(O)C(O)CCC(O)CC(O)CC(O)CC(=O)O[C@H]1C)CC(O)C2C(=O)O | ATCC 40277 | MFC100 | broth dilution | 64 µg/mL |
| Clc1nc(NC2CC2)nc(N2CCN(c3cccc(Cl)c3Cl)CC2)n1 | MTCC 183 | MIC | agar | 100 µg/mL |
| Cc1nn(-c2ccccc2)c(Oc2ccccc2)c1C1C(C#N)=C(N)OC2=C1C(=O)CC(C)(C)C2 | MTCC 227 | MIC | - | 500 µg/mL |
| C=CCc1ccc(O)c(-c2cc(CC=C)ccc2O)c1 | - | MIC | broth dilution | >160 µg/mL |
| O=c1[nH]sc2ccc(F)cc12 | ATCC 2091 | MIC | - | 30 µg/mL |
| C[C@@H]1[C@H](O)[C@@H](C)/C=C/C=C/CC/C=C/C=C/C=C/C=C/[C@H](O[C@@H]2O[C@H](C)[C@@H](O)[C@H](N)[C@@H]2O)C[C@@H]2O[C@](O)(C[C@@H](O)[C@H](O)CC[C@@H](O)C[C@@H](O)C[C@@H](O)CC(=O)O[C@H]1C)C[C@H](O)[C@H]2C(=O)O | MTCC 227 | MIC | - | 100 µg/mL |
| COC(=O)[C@]1(C)CCC[C@]2(C)c3ccc(C(C)C)cc3-c3[nH]c4ccc(C)cc4c3C12 | CGMCC 2.2086 | MIC | - | >100 µg/mL |
| CC(C)OC(=O)CCNC(=S)Nc1ccccc1 | ATCC2094 | MIC | - | 19 µg/mL |
| C=C(c1ccccc1OCc1cccc(Cl)c1)n1ccnc1 | 106 isolates | MIC90 | - | 2 µg/mL |
| Fc1ccc(N2CCN(c3nc(Cl)nc(NC4CC4)n3)CC2)cc1 | MTCC 183 | MIC | agar | 100 µg/mL |
| COc1ccc(Oc2c(C3C(C#N)=C(N)OC4=C3C(=O)CCC4)c(C)nn2-c2ccccc2)cc1 | MTCC 227 | MIC | - | 250 µg/mL |
| COC(=O)[C@]1(C)CCC[C@]2(C)c3ccc(C(C)C)cc3CCC12 | CGMCC 2.2086 | MIC | - | >100 µg/mL |
| C[C@H]1[C@H](O)[C@@H](C)/C=C/C=C/C=C/C=C/C=C/C=C/C=C/[C@H](O[C@@H]2O[C@H](C)[C@@H](O)[C@H](N)[C@@H]2O)C[C@@H]2O[C@](O)(C[C@@H](O)C[C@@H](O)CC[C@H](O)[C@@H](O)C[C@@H](O)CC(=O)O[C@H]1C)C[C@H](O)[C@H]2C(=O)O | ATCC 10231 | MIC | broth dilution | 0.5–1 µg/mL |
| O=C1C(=O)c2ccccc2-c2ccccc21 | KACC 30003 | MIC | visual reading | 60 µg/mL |
| c1ccc([Se][Se]c2ccccc2)cc1 | ATCC 44773 | MFC | broth dilution | 64 µg/mL |
| Cc1ccc(-n2nc(C)c(C3C(C#N)=C(N)OC4=C3C(=O)CC(C)(C)C4)c2Oc2ccccc2)cc1 | MTCC 227 | MIC | - | 500 µg/mL |
| CN(C/C=C/C#CC(C)(C)C)Cc1cccc2ccccc12 | ATCC 10231 | MIC100 | broth dilution | 1.56 µg/mL |
| COc1cc(O)c2c(=O)c(OC)c(-c3ccc(OC4O[C@H](CO)[C@@H](O)[C@H](O)[C@H]4O)cc3)oc2c1 | ATCC 10231 | MIC | - | 80 µg/mL |
| COc1ccc(/C=C2\SC(N(C)C)=NC2=O)cc1 | ATCC 10231 | MIC100 | broth dilution | >250 µg/mL |
| C[C@H]1[C@H](O)[C@@H](C)/C=C/C=C/C=C/C=C/C=C/C=C/C=C/[C@H](O[C@@H]2O[C@H](C)[C@@H](O)[C@H](N)[C@@H]2O)C[C@@H]2O[C@](O)(C[C@@H](O)C[C@@H](O)CC[C@H](O)[C@@H](O)C[C@@H](O)CC(=O)O[C@H]1C)C[C@H](O)[C@H]2C(=O)O | - | MIC50 | - | 0.25–0.5 µg/mL |

A second listing of 8 rows from above:

smiles | strain | read-out | read by | value
COC(=O)[C@]1(C)CCC[C@]2(C)c3ccc(C(C)C)cc3-c3[nH]c4ccccc4c3C12 | CGMCC 2.2086 | MIC | - | >100 µg/mL
CC(C)C(=O)CCCNC(=S)Nc1ccc([N+](=O)[O-])cc1 | ATCC2094 | MIC | - | 10 µg/mL
CCC(C)CC(C)CCCCCCCCC(=O)NC1C[C@@H](O)[C@@H](O)NC(=O)[C@@H]2[C@@H](O)CCN2C(=O)[C@H]([C@@H](O)CC(N)=O)NC(=O)[C@H]([C@H](O)[C@@H](O)c2ccc(OP(=O)([O-])O)cc2)NC(=O)[C@@H]2C[C@@H](O)CN2C(=O)[C@H]([C@H](C)O)NC1=O.[Na+] | MY1208 | MFC | - | 4 µg/mL
FC(F)(F)c1cccc([Se][Se]c2cccc(C(F)(F)F)c2)c1 | - | MFC | broth dilution | >64 µg/mL
Clc1ccc(C(c2ccccc2)N2CCN(c3nc(Cl)nc(NC4CC4)n3)CC2)cc1 | MTCC 183 | MIC | agar | 50 µg/mL
CCCCCOc1ccc(-c2ccc(-c3ccc(C(=O)N[C@H]4C[C@@H](O)[C@@H](O)NC(=O)[C@@H]5[C@@H](O)[C@@H](C)CN5C(=O)[C@H]([C@H](C)O)NC(=O)[C@H]([C@H](O)[C@@H](O)c5ccc(O)cc5)NC(=O)[C@@H]5C[C@@H](O)CN5C(=O)[C@H]([C@H](C)O)NC4=O)cc3)cc2)cc1 | - | MIC90 | - | 0.015 µg/mL
FC(F)(F)c1cccc([Se][Se]c2cccc(C(F)(F)F)c2)c1 | - | EC50 | - | 2–10 µM
Cc1nn(-c2ccccc2)c(Oc2ccc(Cl)cc2)c1C1C(C#N)=C(N)OC2=C1C(=O)CCC2 | MTCC 227 | MIC | - | 100 µg/mL